According to PMC10883919:
Construct, isoform or probe ends are uncertain for at least one entry. For some assays here: Tags and fusion partners may be left off the protein sequences shown.

Assays:
[1] = molecular target: P~TcrX (phosphorylated TcrX) (Mycobacterium tuberculosis H37Rv) (UniProt O69730); assay: EMSA; details: recombinant protein; residues 1-234; probe letters rebuilt from the primers and the genome
[2] = molecular target: T1, TcrX (Mycobacterium tuberculosis H37Rv) (UniProt O69730); assay: EMSA; details: unphosphorylated, weaker than P~TcrX; recombinant protein; residues 1-234; probe letters rebuilt from the primers and the genome
T1 sequence (looked up): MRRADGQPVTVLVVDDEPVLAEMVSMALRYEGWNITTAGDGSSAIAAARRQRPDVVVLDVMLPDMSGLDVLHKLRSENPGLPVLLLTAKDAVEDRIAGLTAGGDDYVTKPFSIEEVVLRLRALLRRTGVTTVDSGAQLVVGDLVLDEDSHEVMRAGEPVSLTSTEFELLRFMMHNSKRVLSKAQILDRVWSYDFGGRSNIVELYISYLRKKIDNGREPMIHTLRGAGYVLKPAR

“CTTTTGAATATCGCTCGGCCGGCAACCACCGTAAAGGGTTGCGGTTACAAACGTGCCATGAACTGGTGCAGCCCGGTGCCTTGGGTGGACACCGGGCTGCTGGTTGTCGGTTACGGAGCGGGTGTCGCGGGAGGACTGACGGACGACGGCACCTGGCCGGGCCCGCCCGGGCCTGGGCCGGGACGCACTGCCGCGGGCCCACCGTGCGGACTGCCCGGTCGCAGCATCATCGCCGGGTGCTGGTGGTGTTGCCGGTGGTGGAAGCCGCCGTGACCGGCATGCTTGCCGAGGATATAGCCGGTGAAGAAGATGACCGCCACGATGAACACGGTTC (double strand) [PRv3705A]”: binds [1]; binds [2].
